A mixed list of measured activities; the numbers were collected in NIAID ChemDB.

Shared fields: tests in culture; organism: Herpes simplex virus 1; endpoint: EC50

Rows are shuffled and stem from different studies.

SMILES,strain,cell line,read by,result
Cc1cn([C@@H]2CC3(CO2)COC(C)(C)O3)c(=O)[nH]c1=O,-,CCL18,-,>100 µM
CC(=O)N[C@H]1C(OCCCCC(=O)NCCCC[C@H](NC(=O)CCCCOC2O[C@H](CO)[C@H](O)[C@H](O)[C@H]2NC(C)=O)C(=O)NCCNP(=O)(O)COCCn2cnc3c(N)ncnc32)O[C@H](CO)[C@H](O)[C@@H]1O,-,HepG2,cytopathic effect,0.5 µM
CCCCCCCc1nc2c(N)ncnc2n1[C@H]1C[C@H](O)[C@@H](CO)O1,B2006 (TK-),ESM,cytopathic effect,>40 µg/mL
O=c1[nH]c(=O)n([C@H]2C[C@H](O)[C@@H](CO)O2)cc1/C=C/Br,CHR-3,HELF,plaque count,0.014 µg/mL
Nc1nc2c(ncn2CC(CO)CCO)c(=O)[nH]1,C42,Primary mouse cells,plaque count,0.1 µM
O=c1[nH]c(=O)n([C@@H]2O[C@H](COP(=O)(O)O)[C@@H](O)[C@@H]2O)cc1/C=C/Br,CHR-3,HELF,plaque count,0.011 µg/mL
O=C(NCc1ccc(Cl)cc1)c1c[nH]c2ccc(C#CCO)cc2c1=O,DJL,-,plaque count,11 µM
Nc1nc2c(ncn2COCCO)c(=O)[nH]1,C42,SIRC,plaque count,0.05 µM
O=C(CI)NCc1cn([C@H]2C[C@H](O)[C@@H](CO)O2)c(=O)[nH]c1=O,KOS,HSF,cytopathic effect,>200 µg/mL
CCCc1cn([C@H]2C[C@H](O)[C@@H](CO)O2)c(=S)[nH]c1=O,A4-3 (TK-),RPMI8226,cytopathic effect,>277.6 µM
Nc1nc2c(ncn2COCCO)c(=O)[nH]1,VR-3,HELF,plaque count,0.041 µg/mL
Nc1nc2c(ncn2CCC(CO)CO)c(=O)[nH]1,SC16,MRC-5,plaque count,0.8 µg/mL
N#Cc1cn([C@H]2C[C@H](O)[C@@H](CO)O2)c(=O)[nH]c1=O,-,Primary rabbit kidney cells,cytopathic effect,160 µM
CC[C@@H](NC(=O)[C@@H](CC(=O)[C@@H](CC(=O)[C@@H](NC(=O)[C@H](C(C)C)N(C)C(=O)[C@H](C)CC1CCCCC1)C(C)(C)C)CC(=O)C(C)(C)C)C1(C(=O)O)CCCC1)C(C)(C)C,PAA-R 5,BHK-21/C13,ELISA,0.14 µM
Cc1nc(N(C)C(=O)Cc2ccc(-c3ccccn3)cc2)sc1S(N)(=O)=O,KT4,VERO,plaque count,0.03 µM
O=C(O)/C=C/c1cn([C@@H]2O[C@H](CO)[C@@H](O)[C@@H]2O)c(=S)[nH]c1=O,KOS (TK+),RPMI8226,cytopathic effect,>209.8 µM
CC1(C)OCC2(CO[C@@H](n3ccc(NC(=O)c4ccccc4)nc3=O)C2)O1,-,CCL18,-,>100 µM
Nc1nc2c(ncn2COCCO)c(=O)[nH]1,-,HEF,cytopathic effect,0.1 µM
CCc1cn([C@H]2C[C@H](O)[C@@H](CO)O2)c(=S)[nH]c1=O,KOS (TK+),RPMI8226,cytopathic effect,0.32 µM
Nc1ccn([C@@H]2O[C@H](CO)[C@@H](O)[C@@H]2O)c(=O)n1,KOS,VERO,plaque count,0.2 µM
N#Cc1cn(C2O[C@H](CO)[C@@H](O)[C@H]2O)c(=O)[nH]c1=O,-,Primary rabbit kidney cells,cytopathic effect,370 µM
Cn1cc(C(=O)NCc2ccc(Cl)cc2)c(=O)c2cc(/C=C\CO)cc(F)c21,DJL,VERO,plaque count,2.5 µM
O=c1[nH]c(=O)n([C@H]2C[C@H](O)[C@@H](CO)O2)cc1CN1CCCC1,KOS,HSF,cytopathic effect,>200 µg/mL
Nc1nc2c(ncn2CCCCO)c(=O)[nH]1,C42,SIRC,plaque count,1.2 µM
Nc1ccn([C@@H]2O[C@H](CO)[C@@H](O)[C@@H]2O)c(=O)n1,KOS,Primary rabbit kidney cells,cytopathic effect,0.02 µg/mL
Cc1cn([C@@H]2C[C@](O)(CO)CO2)c(=O)[nH]c1=O,-,CCL18,-,>100 µM
Nc1nc2c(ncn2COCCO)c(=O)[nH]1,HL-34,HFF,plaque count,0.4 µg/mL
Cc1cn([C@@H]2O[C@H](CO)[C@@H](O)[C@@H]2O)c(=O)[nH]c1=O,CHR-3,HELF,cytopathic effect,0.66 µg/mL
CC(O)c1cn([C@@H]2O[C@H](CO)[C@@H](O)[C@@H]2O)c(=S)nc1N,KOS (TK+),RPMI8226,cytopathic effect,>244.8 µM
O=c1[nH]c(=O)n([C@H]2C[C@H](O)[C@@H](CO)O2)cc1F,B2006 (TK-),PRK,cytopathic effect,0.2 µg/mL
Nc1nc(=S)n([C@@H]2O[C@H](CO)[C@@H](O)[C@@H]2O)cc1/C=C/c1ccccc1,A4-3 (TK-),RPMI8226,cytopathic effect,>258.7 µM
Cc1cn([C@@H]2O[C@H](CO)[C@@H](O)[C@@H]2O)c(=O)[nH]c1=O,KOS-M1,VERO,plaque count,3.6 µM
O=c1[nH]c(=O)n([C@H]2C[C@H](O)[C@@H](CO)O2)cc1I,VEX149,PRK,cytopathic effect,0.15 µg/mL
CCCCCC(=O)Nc1nc(=O)n([C@@H]2C[C@H](CO)[C@@H](O)C2)cc1COC,McIntyre,A549,plaque count,4.89 µM
Nc1nc2c(ncn2COC(CO)CO)c(=O)[nH]1,KOS,WI-38,hybridisation,<0.004 µM
Cn1cc(C(=O)NCc2ccc(Cl)cc2)c(=O)c2cc(CN3CCOCC3)ccc21,L6010381,HFF,plaque count,3.3 µM
Nc1nc2c(ncn2COCCO)c(=O)[nH]1,511,3T6,plaque count,0.05 µg/mL
C#Cc1nc2c(N)ncnc2n1[C@H]1C[C@H](O)[C@@H](CO)O1,G,ESM,cytopathic effect,>4 µg/mL
Nc1nc2c(ncn2CCCC(CO)CO)c(=O)[nH]1,C42 (acyclovir-resistant),VERO,plaque count,55 µM
O=C(Nc1ccn([C@@H]2CC(O)(CO)CO2)c(=O)n1)c1ccccc1,-,CCL18,-,>100 µM
O=c1[nH]c(=S)n([C@@H]2O[C@H](CO)[C@@H](O)[C@@H]2O)cc1/C=C/c1ccccc1,KOS (TK+),RPMI8226,cytopathic effect,>232.9 µM
Nc1nc2c(ncn2COCCO)c(=O)[nH]1,KOS,WI-38,plaque count,0.4–0.8 µM
Nc1nc(=O)n([C@@H]2O[C@H](CO)[C@@H](O)[C@@H]2F)cc1I,VR-3,HELF,plaque count,0.013 µg/mL
CC1(C)OCC(COC(=O)O)(CC(COC(=O)O)OC(=O)O)O1,-,CCL18,-,>100 µM
O=c1[nH]c(=O)n([C@H]2C[C@H](O)[C@@H](CO)O2)cc1F,-,Human skin fibroblasts,cytopathic effect,0.4 µM
CCCc1cn([C@H]2C[C@H](O)[C@@H](CO)O2)c(=S)nc1N,KOS (TK+),RPMI8226,cytopathic effect,0.15 µM
Nc1ccn([C@@H]2C[C@](O)(CO)CO2)c(=O)n1,-,CCL18,-,>100 µM
C[C@@H](c1ccccc1)N(CC(=O)Nc1ccc(-c2csc(N)n2)cc1)C(=O)c1ccncc1,-,BHK-21/C13,plaque count,0.027 µM
O=C(O)P(=O)(O)O,76,RK-13,plaque count,31 µM
CCC(=O)Nc1nc(=O)n([C@@H]2C[C@H](CO)[C@@H](O)C2)cc1COC,McIntyre,A549,plaque count,3.06 µM
Nc1nc2c(ncn2COC(CO)CO)c(=O)[nH]1,95-1552,-,PCR,0.7 µM
C=Cc1cn([C@@H]2O[C@H](CO)[C@@H](O)[C@@H]2O)c(=S)nc1N,KOS (TK+),RPMI8226,cytopathic effect,>266.3 µM
CCCC#Cc1nc2c(N)ncnc2n1[C@H]1C[C@H](O)[C@@H](CO)O1,KOS,ESM,cytopathic effect,100 µg/mL
Cc1cn([C@H]2C[C@H](O)[C@@H](CO)O2)c(=S)[nH]c1=O,KOS (TK+),RPMI8226,cytopathic effect,2.12 µM
O=C(NCc1ccc(Cl)cc1)c1cn2c3c(cc(CN4CCOCC4)cc3c1=O)OC(c1cccnc1)C2,B-2006 (acyclovir-resistant),HFF,plaque count,12 µM
COCc1cn([C@@H]2C[C@H](CO)[C@@H](O)C2)c(=O)nc1Nc1ccccc1,McIntyre,A549,plaque count,>2920 µM
CC1(C)OCC2(CO[C@H](n3ccc(=O)[nH]c3=O)C2)O1,-,CCL18,-,>100 µM
[N-]=[N+]=N[C@@H]1[C@@H](OP(=O)(O)OC[C@H]2O[C@@H](n3cnc4c(N)ncnc43)[C@H](OP(=O)(O)OCCOCn3cnc4c(=O)[nH]c(N)nc43)[C@H]2N=[N+]=[N-])[C@H](n2cnc3c(N)ncnc32)O[C@@H]1CO,B2006 (TK-),PRK,cytopathic effect,300 µg/mL
O=c1[nH]c(=O)n([C@H]2C[C@H](O)[C@@H](CO)O2)cc1I,KOS,Primary rabbit kidney cells,cytopathic effect,0.1 µg/mL
C/C=C\c1nc2c(N)ncnc2n1[C@H]1C[C@H](O)[C@@H](CO)O1,B2006 (TK-),ESM,cytopathic effect,>100 µg/mL
[N-]=[N+]=NCc1cn([C@H]2C[C@H](O)[C@@H](CO)O2)c(=O)[nH]c1=O,VDO374,PRK,cytopathic effect,4 µg/mL

Again, the opening 8 rows:

| SMILES | strain | cell line | read by | result |
|---|---|---|---|---|
| Cc1cn([C@@H]2CC3(CO2)COC(C)(C)O3)c(=O)[nH]c1=O | - | CCL18 | - | >100 µM |
| CC(=O)N[C@H]1C(OCCCCC(=O)NCCCC[C@H](NC(=O)CCCCOC2O[C@H](CO)[C@H](O)[C@H](O)[C@H]2NC(C)=O)C(=O)NCCNP(=O)(O)COCCn2cnc3c(N)ncnc32)O[C@H](CO)[C@H](O)[C@@H]1O | - | HepG2 | cytopathic effect | 0.5 µM |
| CCCCCCCc1nc2c(N)ncnc2n1[C@H]1C[C@H](O)[C@@H](CO)O1 | B2006 (TK-) | ESM | cytopathic effect | >40 µg/mL |
| O=c1[nH]c(=O)n([C@H]2C[C@H](O)[C@@H](CO)O2)cc1/C=C/Br | CHR-3 | HELF | plaque count | 0.014 µg/mL |
| Nc1nc2c(ncn2CC(CO)CCO)c(=O)[nH]1 | C42 | Primary mouse cells | plaque count | 0.1 µM |
| O=c1[nH]c(=O)n([C@@H]2O[C@H](COP(=O)(O)O)[C@@H](O)[C@@H]2O)cc1/C=C/Br | CHR-3 | HELF | plaque count | 0.011 µg/mL |
| O=C(NCc1ccc(Cl)cc1)c1c[nH]c2ccc(C#CCO)cc2c1=O | DJL | - | plaque count | 11 µM |
| Nc1nc2c(ncn2COCCO)c(=O)[nH]1 | C42 | SIRC | plaque count | 0.05 µM |

An empty or dashed field is not shown. Two numbers with a dash give a range or band. ECn is the concentration giving n% inhibition of infection, replication or growth.